Reference: ChEMBL document CHEMBL3797190, “Development of 3,5-Dinitrobenzylsulfanyl-1,3,4-oxadiazoles and Thiadiazoles as Selective Antitubercular Agents Active Against Replicating and Nonreplicating Mycobacterium tuberculosis” (J Med Chem, 2016)
Converted amounts (≈) assume the structure as drawn.

Legend:
Mycobacterium avium [1] = test: Antimycobacterial activity against Mycobacterium avium CNCTC My 330/88 after 14 days by microdilution method; format: functional
[2] = system: Mycobacterium tuberculosis; settings: 234/2005
Mycobacterium avium [3] = test: Antimycobacterial activity against Mycobacterium avium CNCTC My 330/88 after 21 days by microdilution method; format: functional
[4] = system: Mycobacterium tuberculosis; test: Antimycobacterial activity against multi drug resistant Mycobacterium tuberculosis Praha 131 after 14 days by microdilution method; format: functional
[5] = system: Mycobacterium tuberculosis; test: Antimycobacterial activity against multi drug resistant Mycobacterium tuberculosis Praha 1 after 14 days by microdilution method; format: functional
[6] = system: Mycobacterium tuberculosis; test: Antimycobacterial activity against multi drug resistant Mycobacterium tuberculosis 8666/2010 after 14 days by microdilution method; format: functional
[7] = system: Mycobacterium tuberculosis; test: Antimycobacterial activity against multi drug resistant Mycobacterium tuberculosis 9449/2007 after 14 days by microdilution method; format: functional
[8] = system: Mycobacterium tuberculosis; settings: Praha 4

Row | Structure (SMILES) | MIC>99 (Mycobacterium avium [1]) [µM] | MIC>99 [2] [µM] | MIC>99 (Mycobacterium avium [3]) [µM] | MIC>99 [4] [µM] | MIC>99 [5] [µM] | MIC>99 [6] [µM] | MIC>99 [7] [µM] | MIC>99 [8] [µM]
1 | O=[N+]([O-])c1ccc(-c2nnc(SCc3cc([N+](=O)[O-])cc([N+](=O)[O-])c3)s2)cc1 | > 16 | 0.06 (≈ 0.0252 µg/mL) | > 16 | 0.06 (≈ 0.0252 µg/mL) | 0.06 (≈ 0.0252 µg/mL) | < 0.03 | 0.06 (≈ 0.0252 µg/mL) | 0.06 (≈ 0.0252 µg/mL)
2 | O=[N+]([O-])c1ccc(-c2nnc(SCc3cc([N+](=O)[O-])cc([N+](=O)[O-])c3)o2)cc1 | > 125 | 0.06 (≈ 0.0242 µg/mL) | > 125 | 0.06 (≈ 0.0242 µg/mL) | 0.06 (≈ 0.0242 µg/mL) | 0.06 (≈ 0.0242 µg/mL) | 0.06 (≈ 0.0242 µg/mL) | 0.06 (≈ 0.0242 µg/mL)
3 | O=[N+]([O-])c1ccc(-c2nnc(SCc3ccc([N+](=O)[O-])cc3[N+](=O)[O-])s2)cc1 | 250 (≈ 105 µg/mL) | – | 250 (≈ 105 µg/mL) | – | – | – | – | –
4 | O=[N+]([O-])c1ccc(-c2nnc(SCc3ccc([N+](=O)[O-])cc3[N+](=O)[O-])o2)cc1 | > 125 | – | > 125 | – | – | – | – | –
5 | O=[N+]([O-])c1cccc(-c2nnc(SCc3cc([N+](=O)[O-])cc([N+](=O)[O-])c3)o2)c1 | 16 (≈ 6.45 µg/mL) | – | 16 (≈ 6.45 µg/mL) | – | – | – | – | –
6 | O=[N+]([O-])c1cccc(-c2nnc(SCc3ccc([N+](=O)[O-])cc3[N+](=O)[O-])o2)c1 | 32 (≈ 12.9 µg/mL) | – | 32 (≈ 12.9 µg/mL) | – | – | – | – | –
7 | O=[N+]([O-])c1cccc(-c2nnc(SCc3cc([N+](=O)[O-])cc([N+](=O)[O-])c3)s2)c1 | > 16 | – | > 16 | – | – | – | – | –
